Assay results taken from the supplement of paper PMC9931576.
Human monoclonal antibodies against the spike receptor-binding domain (heavy:light variable regions). IC50 against pseudoviruses bearing the spike of naturally observed variants; lower = stronger; >10 µg/ml means not reached at the top dose. No active / inactive call. The stated detection limit is 0.0005 µg/ml; values near or below 0.001 µg/ml lie at the floor of the assay.

Tests used:
Experiment in all cases: pseudovirus neutralization IC50; higher = weaker neutralization
[1] = biological target: SARS-CoV-2 Omicron BA.1 spike pseudovirus
Method: (§1)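 Single-round VSV luciferase pseudovirus mixed with antibody dilutions for 1 h and put on Huh-7 cells for about a day; IC50 from the dose curve.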

[2] = biological target: SARS-CoV-2 Omicron BA.2 spike pseudovirus
Method: as §1

[3] = biological target: SARS-CoV-2 Omicron BA.2.75 spike pseudovirus
Method: as §1

[4] = biological target: SARS-CoV-2 Omicron BA.5 spike pseudovirus
Method: as §1

[5] = biological target: SARS-CoV-2 Omicron BQ.1.1 spike pseudovirus
Method: as §1

[6] = biological target: SARS-CoV-2 Omicron XBB spike pseudovirus
Method: as §1

[7] = biological target: SARS-CoV-2 early D614G spike pseudovirus
Method: as §1

B1: BD55-5854 (protein)
chain 1: QVQLVQSGAEVKKPGSSVKVSCKASGDTFSSYSINWVRQAPGQGPEWMGRIIPMFGIANYAQKFQGRVTITADKSTSTAYMELSSLRSEDTAVYYCATSTYYYDSSGYYPFDYWGQGTWVTVSS
chain 2: DIQMTQSPPSLSASVGDRVTFTCRASQNISNYLHWYQQKPGKAPKLLLYVASSLQSGVPSRFSGRGSGTDFTLTISSLQPEDFATYYCQQSYSTPRTFGQGTKVEIK
pseudovirus neutralization IC50 [1]: > 10 µg/mL | pseudovirus neutralization IC50 [2]: > 10 µg/mL | pseudovirus neutralization IC50 [3]: > 10 µg/mL | pseudovirus neutralization IC50 [4]: > 10 µg/mL | pseudovirus neutralization IC50 [5]: > 10 µg/mL | pseudovirus neutralization IC50 [6]: > 10 µg/mL | pseudovirus neutralization IC50 [7]: 0.0161 µg/mL

B2: BD55-5858 (protein)
chain 1: EVQLVQSGAEVKKPGESLKISCKGSGYGSTTYWIAWVRQKPGKGLEWMGMIYPGDSDTRYSPSFQGQVTISADKSISTAYLQWSSLKASDTAIYYCGRRVGSGTYYDPDYYGVDVWGQGTTVTVSS
chain 2: QSVLTQPPSVSGAPGQRVTISCTGSSSNIGAGYDVHWYQQFPGTAPKLLIFGNSNRPSGVSDRFSGSKSGTSASLAITGLQAEDEADYYCQSSDSSLSGSHVVFGGGTKLTVL
pseudovirus neutralization IC50 [1]: > 10 µg/mL | pseudovirus neutralization IC50 [2]: > 10 µg/mL | pseudovirus neutralization IC50 [3]: > 10 µg/mL | pseudovirus neutralization IC50 [4]: > 10 µg/mL | pseudovirus neutralization IC50 [5]: > 10 µg/mL | pseudovirus neutralization IC50 [6]: > 10 µg/mL | pseudovirus neutralization IC50 [7]: 0.308 µg/mL

B3: BD55-1109 (protein)
chain 1: QVQLVQSGTEVKKPGSSVKVSCKISGGTFTNYAITWVRQAPGQGLEWMGRIIPIFAMADYAQKFQGRVTITADKSTSTAYMELSSLKSEDTAIYYCNFDSNTYRELQNWGQGTLVTVSS
chain 2: DIQMTQSPSSLSASIGDRVTITCQASQDIKKSLHWFQQKPGKAPRLLIYDASDLETGVPSRFSGSGSGTDFTLTISSLQPEDLATYFCQQYDNIPLTFGGGTKVDFK
pseudovirus neutralization IC50 [1]: > 10 µg/mL | pseudovirus neutralization IC50 [2]: 0.665 µg/mL | pseudovirus neutralization IC50 [3]: > 10 µg/mL | pseudovirus neutralization IC50 [4]: 0.614 µg/mL | pseudovirus neutralization IC50 [6]: > 10 µg/mL | pseudovirus neutralization IC50 [7]: 0.321 µg/mL

B4: BD55-5882 (protein)
chain 1: EVQLVESGGGLVQPGRSLRLSCAASGFTFGDYAMHWVRQAPGKGLEWVSGISWNGGSIDYTDSVKGRFTISRDNAKNSLYLQMNSLRAEDTAFYYCAKAYSSGHAYYYGMDVWGQGTTVTVTS
chain 2: DIQMTQSPSSLSASVGDRVTISCRASQTISDYLHWYQQKPGKAPKLLIHVTSSLQSGVPSRFSGSGSGTDFTLTISSLQPEDFATYYCQQSYITPYTFGQGTKLEIK
pseudovirus neutralization IC50 [1]: > 10 µg/mL | pseudovirus neutralization IC50 [2]: 0.00634 µg/mL | pseudovirus neutralization IC50 [3]: 0.00626 µg/mL | pseudovirus neutralization IC50 [4]: > 10 µg/mL | pseudovirus neutralization IC50 [5]: > 10 µg/mL | pseudovirus neutralization IC50 [6]: > 10 µg/mL | pseudovirus neutralization IC50 [7]: 0.00178 µg/mL

B5: BD55-5884 (protein)
chain 1: EVQLVESGGGLVKSGGSLRLSCAASGFTFSDFPMHWVRQAPGKGLEFVSSITSDGVGTFYADSVKGRFVISRDSSKNMMYLQMGSLRAEDMAIYYCAREGRYSAYALHLFFDYWGQGTPVTVSS
chain 2: DIQMTQSPSSLSASVGDRVTITCRASQSISNYLNWYQQKPGRAPRLLVYAASNLQSGVPSRFGGSGSGTDFTLTITNLQPEDFATYYCQQSYITPQYTFGQGTKLEIK
pseudovirus neutralization IC50 [1]: > 10 µg/mL | pseudovirus neutralization IC50 [2]: > 10 µg/mL | pseudovirus neutralization IC50 [3]: > 10 µg/mL | pseudovirus neutralization IC50 [4]: > 10 µg/mL | pseudovirus neutralization IC50 [5]: > 10 µg/mL | pseudovirus neutralization IC50 [6]: > 10 µg/mL | pseudovirus neutralization IC50 [7]: > 10 µg/mL

B6: BD55-5891 (protein)
chain 1: QVQLVQSGAEVKKPGASVKVSCKASGYTFSNYDINWVRQASGQGLEWMGWMNPNSGDTGYAQKFQGRVSMSRNTALSTAYMELSSLTSEDTAVYYCAREWGAHLKVRHENCFDPWGQGTLVTVSS
chain 2: DIEMTQSPTSLSASVGDRVAIPCRASQSISTYLNWYQQKPGKAPKLLIYGASTLQSGVPSRFSGSGSGTDFTLTISSLRPEDFATYHCQQSYSAPYTFGQGTKLEIK
pseudovirus neutralization IC50 [1]: > 10 µg/mL | pseudovirus neutralization IC50 [2]: > 10 µg/mL | pseudovirus neutralization IC50 [3]: > 10 µg/mL | pseudovirus neutralization IC50 [4]: > 10 µg/mL | pseudovirus neutralization IC50 [5]: > 10 µg/mL | pseudovirus neutralization IC50 [6]: > 10 µg/mL | pseudovirus neutralization IC50 [7]: > 10 µg/mL

B7: BD55-5892 (protein)
chain 1: EVQLVESGGGLVKPGRSLRLSCTASGFTFGDYGIYWFRQAPGKGLEWVASIRSKAYGGTTDYAASVHGRFTISRDDSKSIAYLQMNSLKTEDTAVYYCSREARHSSSPYYYYTMDVWGQGTTVPVSS
chain 2: DIQMTQSPSSLSASVGDRVTITCRASQTISYYLNWYQQKPGKAPKLLIYATSTLQSGVPSRFSGSGSGTDFTLTIISLQPEDFATYYCQHSYSLPITFGQGTRLEIE
pseudovirus neutralization IC50 [1]: > 10 µg/mL | pseudovirus neutralization IC50 [2]: > 10 µg/mL | pseudovirus neutralization IC50 [3]: > 10 µg/mL | pseudovirus neutralization IC50 [4]: > 10 µg/mL | pseudovirus neutralization IC50 [5]: > 10 µg/mL | pseudovirus neutralization IC50 [6]: > 10 µg/mL | pseudovirus neutralization IC50 [7]: > 10 µg/mL
